Measurements reported in PubChem BioAssay AID504761 (Drosophila RNAi Screening Center, 2011).
Assay: 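Insect host genes that dengue virus relies on to spread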 (primary screen). Cells: D.Mel-2 cells from Drosophila. Knock-down reagent: long dsRNA against Drosophila genes. Conditions: infection with dengue virus type 2; dose and infection time not stated. Read-out: 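Cells stained for dengue envelope protein and imaged; percent of infected cells per well on duplicate plates, ranked by infection, with stained nuclei counted for cell number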. Reading the numbers: infection score: higher = more virus-infected cells. Hit rule: 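Low infection ranks in the two replicates (chance level up to 0.065) followed by a retest with a 1.5-fold or larger significant decrease, p below 0.05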. Calls: active = confirmed: knock-down lowers infection; inactive = not picked or not confirmed.
The screen tested about 22,000 reagents; this is a random part of those with a known target gene and a result. Of all reagents, 116 (0.52%) are marked active. 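Calls depend on retest data that are not deposited; infection was ranked per plate without normalising between plates; the unit of the infection score is not given.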 Unmarked entries are inactive. Names joined by + are all predicted targets of the reagent. Not all columns of the deposit are shown. Reagent sequences are not shown. Not stated in the record: the amount of reagent, the time to read-out.

What is on record for CG4363 [DRSC04465]?
infection score, replicate 1: 7.4

How did the screen score Tdg [DRSC17119]?
infection score, replicate 1: 1.24

What did the screen give for Tdg [DRSC17169]?
infection score, replicate 1: 2.9

What did the screen give for CG7841 [DRSC10922]?
infection score, replicate 1: 5.88

What is on record for MED23 + CG3700 [DRSC04406]?
infection score, replicate 1: 7.92

What did the screen give for MED23 + CG3700 [DRSC04407]?
infection score, replicate 1: 9.66

For MED23 + CG3700 [DRSC24669], what does the deposit list?
infection score, replicate 1: 12.4

Which result is listed for MED23 + CG3700 [DRSC25453]?
infection score, replicate 1: 4.44

What did the screen give for ATPsynD [DRSC14093]?
infection score, replicate 1: 1.69

Which result is listed for ATPsynD [DRSC26487]?
infection score, replicate 1: 9.21

Reprinted from the entries so far for reference:
Tdg [DRSC17119] | infection score, replicate 1: 1.24
Tdg [DRSC17169] | infection score, replicate 1: 2.9

Continued.
With CG12546 [DRSC11676], what was measured?
infection score, replicate 1: 3.94

For eIF3m [DRSC07142], what does the deposit list?
infection score, replicate 1: 5.35

What did the screen give for eIF3m [DRSC26908]?
infection score, replicate 1: 3.34

What did the screen give for CASK [DRSC14588]?
infection score, replicate 1: 3.69

For CASK [DRSC16597], how do the results read?
infection score, replicate 1: 7.63

With CASK [DRSC16598], how do the results read?
infection score, replicate 1: 5.22

Which result is listed for CASK [DRSC21917]?
infection score, replicate 1: 14.5

Which result is listed for CASK [DRSC29057]?
infection score, replicate 1: 4.47
